# Values quoted from earlier work, collected in paper PMC8795881.
# Biological target: His37 (UniProt position 37, IIGILHLILWI)
# Test: NMR (solid-state)
# Conditions: drug-free channel in lipid bilayer
substance,measurement,value
"Matrix protein 2 (M2 proton channel), transmembrane domain peptide M2(22-46) / M2TM (Influenza A virus (strain not stated))",pKa,8.2
